{"source": "patent US6727265B2", "about": "“Phenoxyethyl-thiourea-pyridine compounds and their use for treatment of HIV-infections” (Parker Hughes Institute, priority 2000, dated 2004)", "note": "The index is printed as in the source, without its formula.", "data": [{"test_system": "HIV-1 strain HTLVIIIB", "test": "anti-HIV activity: inhibition of replication of HIV-1 strain HTLVIIIB in PBMC", "type": "cell-based", "conditions": "selectivity index", "values": [{"smiles": "S=C(NCCOc1ccccc1)Nc1ccc(Br)cn1", "note": "[IV, N-[2-(Phenoxy)ethyl]-N′-[2-(5-bromopyridyl)]thiourea]", "SI": "18,400"}, {"smiles": "S=C(NCCOc1ccccc1)Nc1ccc(Cl)cn1", "note": "[III, N -[2-(Phenoxy)ethyl]-N′-[2-(5-chloropyridyl)]thiourea]", "SI": ">25,000"}, {"smiles": "S=C(NCCOc1ccccc1)Nc1ccccn1", "note": "[II, N-[2-(Phenoxy)ethyl]-N′-[2-(pyridyl)]thiourea]", "SI": "1,100"}]}]}
